Compound potency records, mixed from different reports. Data source: NIAID ChemDB in PubChem.

Common to all: whole-cell or culture tests; species: Hepatitis C virus

Inhibition is in % at the dose shown (toxicity tests: loss of growth or viability).

smiles	strain	mutations	cell line	method	setting	measure	tested at	result
CC(C)OC(=O)N[C@H](C(=O)N1C[C@H]2C(C1C(=O)NC(CC1CC1)C(=O)C(=O)NCC(=O)N[C@H](C(=O)N(C)C)c1ccccc1)C2(C)C)C1CCCCC1	-	-	-	replicon	-	EC90	-	0.2 µM
COc1cc([C@H]2O[C@@H](c3cc(OC)c4c(c3)OCO4)[C@@H](C)[C@@H]2C)cc2c1OCO2	Cell culture J6/JFH-1	-	Huh7.5	-	-	inhibition	25 µM	95%
CC1(C)CC(=O)C2=C(C1)Nc1c(O)cccc1N(C(=O)c1ccccn1)[C@@H]2c1ccc(OCc2ccccc2)cc1F	1b	-	-	luciferase / reporter gene / replicon	-	EC50	-	10.07 µM
CCC(C)OC(=O)N[C@H](C(=O)N1C[C@H]2C(C1C(=O)NC(CC1CC1)C(=O)C(N)=O)C2(C)C)C(C)(C)C	-	-	-	replicon	-	EC90	-	0.4 µM
O=C(Nc1ccc(-c2nc3ccccc3[nH]2)cc1)C1CCN(CC2CC=CCC2)CC1	JFH-1	-	Huh7	PCR	-	inhibition	15 µM	≥40%
NC(=S)Nc1cccc(OCCCCCNc2cccc3ccccc23)c1	-	-	Ava5-EG(delta4AB)SEAP	reporter gene / fluorescence	-	EC50	-	0.001–1 µM
COc1cccc(CN2CCC(C(=O)Nc3cccc(-c4cccc(F)c4)c3)CC2)c1O	JFH-1	-	Huh7	PCR	-	inhibition	5 µM	≥40%
CC1(C)CC(=O)C2=C(C1)Nc1c(O)cccc1N(C(=O)NCC(=O)NS(C)(=O)=O)C2c1ccc(OCc2ccccc2)cc1Cl	1b	-	-	luciferase / reporter gene / replicon	-	EC50	-	>32 µM
O=C(N[C@@H](C(=O)N1CCC[C@H]1c1ncc(-c2ccc(-c3ccc(-c4cnc([C@@H]5CCCN5C(=O)[C@H](NC(=O)C5CC5)c5ccccc5)s4)cc3)cc2)s1)c1ccccc1)C1CC1	genotype 1b	V153M	Huh7.5	luciferase / reporter gene	-	fold resistance	-	1
CCc1cn([C@@H]2O[C@H](CO)[C@@H](O)[C@@]2(C)F)c2ncnc(N)c12	-	-	CEM	replicon	-	EC90	-	>10 µM
COc1cc(CN2CCC(C(=O)Nc3cccc(-c4cccc(Cl)c4)c3)CC2)ccc1O	JFH-1	-	Huh7	PCR	-	inhibition	15 µM	≥40%
CC(C)CC(NC(=O)NC(C(=O)N1C[C@H]2C([C@H]1C(=O)NC(CC1CC1)C(=O)C(=O)NCC(=O)N[C@H](C(=O)N(C)C)c1ccccc1)C2(C)C)C(C)(C)C)C(=O)O	-	-	-	replicon	-	EC90	-	5 µM
N#Cc1ccccc1OCCCCCOc1cccc(NC(N)=S)c1	-	-	Ava5-EG(delta4AB)SEAP	reporter gene / fluorescence	-	EC50	-	0.001–1 µM
CCOC(=O)[C@H](C)NP(=O)(OC[C@H]1O[C@@H](n2cc(I)c3c(N)nc(N)nc32)[C@](C)(F)[C@@H]1O)Oc1ccccc1	-	-	CEM	replicon	-	EC90	-	>10 µM
CC1(C)CC(=O)C2=C(C1)Nc1c(O)cccc1N(C(=O)CCC(=O)N[C@H](Cc1cnc[nH]1)C(=O)O)C2c1ccc(OCc2ccccc2)cc1Cl	1b	-	-	luciferase / reporter gene / replicon	-	EC50	-	>100 µM
C=CCNC(=O)C(=O)C(CCCC)NC(=O)[C@@H]1C2[C@H](CN1C(=O)[C@@H](NC(=O)N[C@H](C(=O)OC(C)(C)C)C(C)(C)C)C(C)(C)C)C2(C)C	-	-	-	replicon	-	EC90	-	0.1 µM
CC1(C)CC(=O)C2=C(C1)Nc1c(O)cccc1N[C@@H]2c1ccc(OCc2ccccc2)cc1Cl	1b	-	-	luciferase / reporter gene / replicon	-	EC50	-	4.01 µM
COc1cc([C@@H]2O[C@H](c3cc(OC)c4c(c3)OCO4)[C@@H](C)[C@@H]2C)cc(OC)c1OC	Subgenomic replicon S52	T1056A T1429I S2204I	Huh7.5	luciferase	-	inhibition	12.5 µM	96%
C[C@@]1(F)[C@H](O)[C@@H](CO)O[C@@H]1n1ccc2c(N)nc(N)nc21	-	-	CEM	replicon	-	EC90	-	>10 µM
COC(=O)[C@H](C)NP(=O)(OC[C@H]1O[C@@H](n2ccc(=O)[nH]c2=O)[C@](C)(F)[C@@H]1O)Oc1ccccc1	S282T mutant	-	-	replicon / PCR	-	EC90	-	34.7 µM
O=C(Nc1cccc(-c2ccco2)c1)C1CCN(Cc2cccc3cccnc23)CC1	JFH-1	-	Huh7	PCR	-	inhibition	15 µM	≥40%
COC(=O)/C=C/c1cn([C@@H]2O[C@H](CO)[C@@H](O)[C@@]2(C)F)c2ncnc(N)c12	-	-	CEM	replicon	-	EC90	-	>10 µM
COc1cccc(-c2ccccc2NC(=O)C2CCN(Cc3cccc(OC)c3O)CC2)c1	JFH-1	-	Huh7	PCR	-	inhibition	5 µM	≥40%
CCC(C)C(NC(=O)N[C@H](C(=O)N1C[C@H]2C([C@H]1C(=O)NC(CC1CC1)C(=O)C(N)=O)C2(C)C)C(C)(C)C)C(=O)O	-	-	-	replicon	-	EC90	-	3.2 µM
CCCNC(=S)Nc1ccc2c(c1)Cc1cc(Br)ccc1-2	-	-	Ava5-EG(delta4AB)SEAP	reporter gene / fluorescence	-	EC50	-	0.001–1 µM
CC1CCC(C(=O)N(c2cc(C#CC(C)(C)C)sc2C(=O)O)C2CCC(O)CC2)CC1	H77 (GT1a)	V494A	Huh7	luciferase	-	fold resistance	-	27.2
C=Cc1cn([C@H]2O[C@H](CO)[C@@H](O)[C@@]2(C)F)c2ncnc(N)c12	-	-	CEM	replicon	-	EC90	-	>10 µM
CNC(=O)c1c(-c2ccc(F)cc2)oc2cc(N(Cc3ccc(B(O)O)c(F)c3)S(C)(=O)=O)c(C3CC3)cc12	C316N genotype 1b	-	Huh7.5	luciferase	-	EC50	-	0.0019 µM
CCCCn1c(=O)c2cc(OC)ccc2c2cc(C(O)(C(F)(F)F)C(F)(F)F)c(OC)cc21	1b	-	LucNeo2 cells	luciferase	-	EC50	-	0.13 µM
NC(=S)Nc1cccc(OCCCCCOc2ccccc2-c2ccc(F)cc2)c1	-	-	Ava5-EG(delta4AB)SEAP	reporter gene / fluorescence	-	EC50	-	0.001–1 µM
CCCCC(NC(=O)[C@@H]1[C@@H]2[C@H](CN1C(=O)[C@@H](NC(=O)OC(C)(C)C)C(C)(C)C)C2(C)C)C(=O)C(=O)NCC(=O)N[C@H](C(=O)N(C)C)c1ccccc1	-	-	-	replicon	-	EC90	-	0.4 µM
COc1c(C(C)(C)C)cc(-c2ccc[nH]c2=O)c2ncc(-c3ccc(NS(C)(=O)=O)cc3)cc12	GT 1a-H77	-	Huh7	replicon	40% human serum	EC90	-	0.123 µM
CCC(C)C(NC(=O)N[C@H](C(=O)N1C[C@H]2C([C@H]1C(=O)NC(CC1CC1)C(=O)C(=O)NCC(=O)N[C@H](C(=O)N(C)C)c1ccccc1)C2(C)C)C(C)(C)C)C(=O)OCc1ccccc1	-	-	-	replicon	-	EC90	-	0.4 µM
CCc1cn([C@H]2O[C@H](CO)[C@@H](O)[C@@]2(C)F)c2ncnc(N)c12	-	-	CEM	replicon	-	EC90	-	>10 µM
CC1(C)CC(=O)C2=C(C1)Nc1c(O)cccc1NC2c1ccc(OCc2ccccc2)c(F)c1	1b	-	-	luciferase / reporter gene / replicon	-	EC50	-	2.5 µM
CC(C)(C)[C@H](NC(=O)N[C@H](C(=O)N1C[C@H]2C([C@H]1C(=O)NC(CC1CC1)C(=O)C(N)=O)C2(C)C)C(C)(C)C)C(=O)OC1CCCCC1	-	-	-	replicon	-	EC90	-	2.7 µM

Rows are shuffled and stem from different studies. ECn is the concentration giving n% inhibition of infection, replication or growth. Blank or dashed fields: not listed here. Fold resistance: result on the changed form divided by that on wild type. a–b is a range or a potency band.